## RC index of single-base changes in HIV-1 integrase

The measurements come from Al-Mawsawi et al. 2014 (doi:10.1186/s12977-014-0124-6).

Protein: integrase of HIV-1 NL4-3, numbered from its first residue. The source prints no sequence; the chain below is taken from UniProt P12497, a closely related isolate, and fits the source at the 252 positions it covers.
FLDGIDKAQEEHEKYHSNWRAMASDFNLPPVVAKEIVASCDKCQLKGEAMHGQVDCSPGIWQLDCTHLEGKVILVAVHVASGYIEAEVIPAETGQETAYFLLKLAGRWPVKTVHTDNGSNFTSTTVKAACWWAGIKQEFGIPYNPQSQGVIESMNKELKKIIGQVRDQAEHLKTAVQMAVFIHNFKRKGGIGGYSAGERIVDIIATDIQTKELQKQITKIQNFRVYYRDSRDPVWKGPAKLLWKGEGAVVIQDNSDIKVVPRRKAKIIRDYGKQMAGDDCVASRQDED
"Other frame" gives the effect on an overlapping gene as the source lists it; other overlaps (genes, RNA elements) are not shown.

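Seven fragments of pNL4-3 were mutated by error-prone PCR, and each virus pool was passaged in CEM T cells. The RC index is the frequency of a change after passage round 2 divided by its frequency in the plasmid library.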

A higher RC index is a better tolerated change; approximate classes are lethal up to 0.1, attenuated to 0.2, tolerated above.
Substitutions are written as wild-type residue, site number, new residue.
Input reads are the counts in the plasmid library.
Clones carried about five changes per kilobase, which can drag down the index of neutral changes.
Base changes are numbered along pNL4-3.
An index over 1, which the authors read as above wild type, was rare (1.9% of all changes in the genome).

With V250I (base G4977A, input reads 215) the assay gave 0.188. S230C (base A4917T, input reads 378) read 0.0286. K211T (base A4861C, input reads 35) read 0.0515. With L45Q (base T4363A, input reads 643) the assay gave 0.0965. For Q274P (base A5050C, other frame Vif silent, input reads 76) the result was 0.0886. For F26Y (base T4306A, input reads 424) the result was 0.0106. D270N (base G5037A, input reads 182) gave 0.259. With C65S (base G4423C, input reads 156) the assay gave 0.0896.

P233L (base C4927T, input reads 293) read 0.130. With A133G (base C4627G, input reads 114) the assay gave 0.0694. For P90L (base C4498T, input reads 157) the result was 0.509. For D6H (base G4245C, input reads 52) the result was 0.520. I204V (base A4839G, input reads 226) read 0.0159. With G197R (base G4818C, input reads 183) the assay gave 0.0492. K111R (base A4561G, input reads 224) read 0.0353. With A8V (base C4252T, input reads 579) the assay gave 0.0818.

With G134E (base G4630A, input reads 342) the assay gave 0.353. K136E (base A4635G, input reads 732) gave 0.0459.

Extract of 2 entries:

{"substitution": "G134E", "base": "G4630A", "other frame": "none", "input reads": "342", "replication capacity index": 0.353}
{"substitution": "A8V", "base": "C4252T", "other frame": "none", "input reads": "579", "replication capacity index": 0.0818}